Measured values from several laboratories, pooled; numbers as filed in NIAID ChemDB.

All rows: tests on isolated targets; organism: HIV-1; target: Protease; read-out: inhibition

Conditions beyond the fields shown may differ between rows. An empty or dashed field is not shown. Inhibition is in % at the dose shown (toxicity tests: loss of growth or viability).

structure	tested at	method	value
CC(C)CN(C[C@@H](O)[C@H](Cc1ccccc1)NC(=O)OCc1ccccc1)S(C)(=O)=O	10 µM	-	89%
CC(C)C[C@H](NC(=O)[C@H](CC(=O)O)NC(=O)CCCCCCCCCCCCCCC(=O)N[C@@H](CC(N)=O)C(=O)N[C@@H](Cc1ccccc1)C(=O)O)C(=O)N[C@@H](Cc1ccccc1)C(N)=O	5.5 µM	-	20%
CCCC1(Cc2ccccc2)OC(=O)C(C(c2cccc(NS(=O)(=O)c3cccc4cccnc34)c2)C(C)C)=C1O	3.3 µM	fluorescence	100%
COc1cccc2cc(C(=O)N[C@@H](Cc3ccccc3)[C@H](O)C(=O)N3CSC(C)(C)[C@H]3C(=O)NCc3ccccc3C)oc12	5 µM	HPLC	53.2%
CCOC(=O)[C@@]1(C)CC[C@]2(C)CC[C@]3(C)C(=CC(=O)[C@@H]4[C@@]5(C)CC/C(=N\OCc6ccc(Br)cc6)C(C)(C)[C@@H]5CC[C@]43C)[C@@H]2C1	1000 µg/mL	substrate cleavage / fluorescence	26.8%
CC(C)C[C@@H](C=O)NC(=O)[C@H](CC(C)C)NC(=O)[C@H](CC(C)C)NC(=O)OCc1ccccc1	100 µM	-	0%
CC(C)[C@H](NC(=O)[C@H](CCCN=C(N)N)NC(=O)N[C@@H](Cc1ccccc1)C(=O)O)C(=O)N[C@H](C=O)Cc1ccccc1	10 µM	-	~95%
CC(C)(C)NC(=O)[C@@H]1CSCN1C(=O)[C@@H](O)[C@H](Cc1ccccc1)NC(=O)CCCC(=O)O	5 µM	-	81.9%
COc1cccc2cc(CN(C(=O)c3ccccc3)C3CC3)c(=O)[nH]c12	20 µM	substrate cleavage / fluorescence	-3.5%
CSCC[C@H](NC(=O)[C@H](CC(N)=O)NC(=O)CCCCCCCCCCCCCCC(=O)N[C@H](C(=O)N[C@@H](CC(C)C)C(=O)N[C@@H](Cc1ccccc1)C(N)=O)C(C)O)C(=O)O	5.5 µM	-	5%
CC(C)(C)NC(=O)[C@H]1N(C(=O)[C@@H](O)[C@H](Cc2ccccc2)NC(=O)c2ccccc2C(=O)NCc2cccnc2)CSC1(C)C	5 µM	HPLC	12.6%
CCC(C)(C)NC(=O)[C@@H]1CSCN1C(=O)[C@@H](O)[C@H](Cc1ccccc1)NC(=O)[C@H](CS(C)(=O)=O)NC(=O)COc1cccc2ccccc12	0.05 µM	-	88.3%
CNC(=O)[C@@H](NC(=O)[C@H](Cc1ccccc1)CS(=O)C[C@@H](Cc1ccccc1)C(=O)N[C@H](C(=O)NC)C(C)C)C(C)C	10 µM	-	90%
COc1cccc2cc(CN(C(=O)c3ccccc3)C3CCCCC3)c(=O)[nH]c12	20 µM	substrate cleavage / fluorescence	-15.6%
Cc1cc(C)[n+](C[n+]2[nH]c(C)cc2C)[nH]1.[Cl-].[Cl][Au-]([Cl])([Cl])[Cl]	100 µM	substrate cleavage	62.7%
CCOC(=O)[C@@]1(C)CC[C@]2(C)CC[C@]3(C)C(=CC(=O)[C@@H]4[C@@]5(C)CC/C(=N\OCc6ccc7ccccc7c6)C(C)(C)[C@@H]5CC[C@]43C)[C@@H]2C1	1000 µg/mL	substrate cleavage / fluorescence	29%
CCCC1(CCC)OC(=O)C(C(c2cccc([N+](=O)[O-])c2)C2CC2)=C1O	3.3 µM	fluorescence	100%
Cc1ccccc1CNC(=O)[C@H]1N(C(=O)[C@@H](O)[C@H](Cc2ccccc2)NC(=O)c2ccccc2C(=O)NCc2cccnc2)CSC1(C)C	5 µM	HPLC	59.6%
CC(=O)N[C@H](C(=O)N[C@@H](CC(C)C)C(=O)N[C@@H](CC(N)=O)C(=O)N[C@@H](Cc1ccccc1)C(N)=O)[C@@H](C)O	800 µg/mL	HPLC	29%
OC(CCc1ccc(F)cc1)c1cnc2sc3c(n12)CCCCC3	10 µM	fluorescence	84%
CC(C)C[C@H](NC(=O)[C@@H]1C[C@@H](O)CN1C(=O)CCCCCCCCCCCCCCC(=O)N[C@@H](CC(N)=O)C(=O)N[C@@H](Cc1ccccc1)C(=O)O)C(=O)N[C@@H](Cc1ccccc1)C(N)=O	5.5 µM	-	20%
COc1ccc2[nH]c(=O)c(CNC3CCCC3)cc2c1	20 µM	substrate cleavage / fluorescence	-10.2%
CCOC(=O)[C@@]1(C)CC[C@]2(C)CC[C@]3(C)C(=CC(=O)[C@@H]4[C@@]5(C)CC/C(=N\OCc6ccc(C(F)(F)F)cc6)C(C)(C)[C@@H]5CC[C@]43C)[C@@H]2C1	1000 µg/mL	substrate cleavage / fluorescence	26.2%
OC(CCc1cccc(F)c1)c1cnc2sc3c(n12)CCCCC3	10 µM	fluorescence	75%
O=C(c1ccccc1)N(Cc1cc2ccccc2[nH]c1=O)C1CCCC1	20 µM	substrate cleavage / fluorescence	-3.2%
CCOC(=O)[C@@]1(C)CC[C@]2(C)CC[C@]3(C)C(=CC(=O)[C@@H]4[C@@]5(C)CC/C(=N\OCc6ccccc6C#N)C(C)(C)[C@@H]5CC[C@]43C)[C@@H]2C1	1000 µg/mL	substrate cleavage / fluorescence	29.2%
O=C(N[C@@H](CO)c1ccccc1)[C@@H](CSC[C@@H](Cc1ccccc1)C(=O)N[C@@H](CO)c1ccccc1)Cc1ccccc1	10 µM	-	51%
COc1cccc2cc(C(=O)N[C@@H](Cc3ccccc3)[C@H](O)C(=O)N3CSC(C)(C)[C@H]3C(=O)NC(C)(C)C)oc12	5 µM	HPLC	21.1%
CCOC(=O)[C@H](CC(C)C)NC(=O)[C@H](Cc1ccccc1)NC(=O)[C@@H](O)[C@H](Cc1ccccc1)NC(=O)OC(C)(C)C	40 µM	HPLC	0%
O=c1cc(-c2ccc(O)cc2)oc2cc(O)cc(O)c12	1000 µg/mL	substrate cleavage / fluorescence	91.3%
COc1cccc2cc(CNC3CCCC3)c(=O)[nH]c12	20 µM	substrate cleavage / fluorescence	-18.3%
CCCC1(CCC)OC(=O)C(C(c2cccc(N)c2)C2CC2)=C1O.Cl	3.3 µM	fluorescence	100%
CC(C)C[C@H](NC(=O)[C@@H](NC(=O)CCCCCCCCCCCCCCC(=O)N[C@@H](CC(N)=O)C(=O)N[C@@H](Cc1ccccc1)C(=O)O)C(C)O)C(=O)N[C@@H](Cc1ccc(O)cc1)C(=O)O	5.5 µM	-	40%
Cc1sc2ncc(C(O)CCc3ccccc3)n2c1C	10 µM	fluorescence	100%
CCc1c(C)c2c(c(C)c1C1=NC(=O)C(c3cc(-c4c(C)c5c(c(C)c4CC)[C@](C)(O)C[C@@H]5C)[nH]c3O)=C1)[C@H](C)C[C@]2(C)O	10 µM	-	0%
CC(C)C[C@H](NC(=O)[C@@H](N)[C@@H](C)O)C(=O)N[C@@H](CC(N)=O)C(=O)N[C@@H](Cc1ccccc1)C(N)=O	800 µg/mL	HPLC	16%
CC(C)(CC(=O)O)CC(=O)N[C@@H](Cc1ccccc1)[C@H](O)C(=O)N1CSC[C@H]1C(=O)NC(C)(C)C	5 µM	-	50.1%
CC(C)(C)NC(=O)[C@H]1N(C(=O)[C@@H](O)[C@H](Cc2ccccc2)NC(=O)[C@H](CC(N)=O)NC(=O)COc2cccc3cnccc23)CSC1(C)C	0.05 µM	-	97.6%
CC(C)C[C@H](NC(=O)[C@H](CCC(N)=O)NC(=O)CCCCCCCCCCCCCCC(=O)N[C@@H](CC(N)=O)C(=O)N[C@@H](Cc1ccccc1)C(=O)O)C(=O)N[C@@H](Cc1ccccc1)C(N)=O	5.5 µM	-	30%
Cc1sc2ncc(C(O)CCCc3ccccc3)n2c1C	10 µM	fluorescence	100%
CC(C)C[C@H](NC(=O)[C@@H](NC(=O)CCCCCCCCCCCCCCC(=O)N[C@@H](CCCCN)C(=O)N[C@@H](Cc1ccccc1)C(=O)O)C(C)O)C(=O)N[C@@H](Cc1ccccc1)C(N)=O	5.5 µM	-	35%
COC(=O)c1cc(O)c(O)c(O)c1	100 µM	HPLC	24.6%
CC(=O)N[C@@H](CC(C)C)C(=O)N[C@H](C(=O)N[C@@H](CC(C)C)C(=O)N[C@@H](CC(N)=O)C(=O)N[C@@H](Cc1ccccc1)C(=O)O)[C@@H](C)O	266 µg/mL	HPLC	25%
CS(=O)(=O)C[C@H](NC(=O)COc1cccc2ccccc12)C(=O)N[C@@H](Cc1ccccc1)[C@H](O)C(=O)N1CSC[C@H]1C(=O)NCC(N)=O	0.05 µM	-	22.1%
COc1cccc2cc(CNC3CC3)c(=O)[nH]c12	20 µM	substrate cleavage / fluorescence	-12.8%
Cc1ccccc1CNC(=O)[C@H]1N(C(=O)[C@@H](O)[C@H](Cc2ccccc2)NC(=O)c2ccccc2C(=O)NCc2ccccn2)CSC1(C)C	5 µM	HPLC	69.6%
CC(C)(C)NC(=O)[C@@H]1CSCN1C(=O)[C@@H](O)[C@H](Cc1ccccc1)NC(=O)C(C)(C)CC(=O)O	5 µM	-	61.3%
CCOC(=O)[C@@]1(C)CC[C@]2(C)CC[C@]3(C)C(=CC(=O)[C@@H]4[C@@]5(C)CC/C(=N\OCc6ccccc6)C(C)(C)[C@@H]5CC[C@]43C)[C@@H]2C1	1000 µg/mL	substrate cleavage / fluorescence	11.8%
CC(O)[C@H](NC(=O)CCCCCCCCCCCCCCC(=O)N[C@@H](CC(N)=O)C(=O)N[C@@H](Cc1ccccc1)C(=O)O)C(=O)N[C@@H](CC(N)=O)C(=O)N[C@@H](Cc1ccccc1)C(N)=O	5.5 µM	-	5%
CC(C)CC(=O)N[C@H](C(=O)N[C@H](C(=O)N[C@H]([C@@H](O)CC(=O)N[C@@H](C)C(=O)N[C@H]([C@@H](O)CC(=O)O)C(F)(F)F)C(F)(F)F)C(C)C)C(C)C	150 µM	fluorescence	0%
COc1ccc2[nH]c(=O)c(CN(C(=O)c3ccccc3)C3CCCCC3)cc2c1	20 µM	substrate cleavage / fluorescence	-33.1%
OC(CCCCc1ccccc1)c1cnc2sc3c(n12)CCCCC3	3.3 µM	fluorescence	98%
O=C(N[C@@H](Cc1ccccc1)[C@H](O)[C@H](O)[C@@H](Cc1ccccc1)NC(=O)c1ccccc1O)c1ccccc1O	10 µM	substrate cleavage	32%
O=c1cc(-c2ccc(O)cc2)oc2cc(O)c(O)c(O)c12	1000 µg/mL	substrate cleavage / fluorescence	100%
O=c1[nH]c2ccccc2cc1CNC1CCCCC1	20 µM	substrate cleavage / fluorescence	-37.8%
CC(C(=O)O)C(C)C(=O)N[C@@H](Cc1ccccc1)[C@H](O)C(=O)N1CSC(C)(C)[C@H]1C(=O)NC(C)(C)C	0.05 µM	-	77.5%
CC(C)CNC(=O)[C@@H](NC(=O)[C@H](Cc1ccccc1)NC(=O)[C@H](O)[C@H](Cc1ccccc1)NC(=O)[C@@H](NC(=O)OCc1ccccc1)C(C)C)C(C)C	5 µM	-	16.6%
N=S(=O)(C[C@@H](Cc1ccccc1)C(=O)NC(CO)c1ccccc1)C[C@@H](Cc1ccccc1)C(=O)N[C@H](CO)c1ccccc1	10 µM	-	87%
C[C@@H]1CC[C@]2(C(=O)O[C@@H]3O[C@H](CO)[C@@H](O)[C@H](O)[C@H]3O)CC[C@]3(C)C(=CC[C@@H]4[C@@]5(C)C[C@@H](O)[C@H](O)C(C)(C)[C@@H]5CC[C@]43C)[C@@H]2[C@]1(C)O	100 µM	HPLC	52.9%
CC(C)(C)NC(=O)[C@H]1N(C(=O)[C@@H](O)[C@H](Cc2ccccc2)NC(=O)[C@H](CC(N)=O)NC(=O)COc2ccccc2-c2ccccc2)CSC1(C)C	0.05 µM	-	97%
COc1cccc2cc(CNC3CCCCC3)c(=O)[nH]c12	20 µM	substrate cleavage / fluorescence	-7.7%

4 of the rows above, restated:

structure,tested at,method,value
CCOC(=O)[C@@]1(C)CC[C@]2(C)CC[C@]3(C)C(=CC(=O)[C@@H]4[C@@]5(C)CC/C(=N\OCc6ccc(C(F)(F)F)cc6)C(C)(C)[C@@H]5CC[C@]43C)[C@@H]2C1,1000 µg/mL,substrate cleavage / fluorescence,26.2%
CCCC1(CCC)OC(=O)C(C(c2cccc([N+](=O)[O-])c2)C2CC2)=C1O,3.3 µM,fluorescence,100%
COc1cccc2cc(CN(C(=O)c3ccccc3)C3CC3)c(=O)[nH]c12,20 µM,substrate cleavage / fluorescence,-3.5%
CC(=O)N[C@@H](CC(C)C)C(=O)N[C@H](C(=O)N[C@@H](CC(C)C)C(=O)N[C@@H](CC(N)=O)C(=O)N[C@@H](Cc1ccccc1)C(=O)O)[C@@H](C)O,266 µg/mL,HPLC,25%